A mixed list of measured activities; the numbers were collected in NIAID ChemDB.

Shared fields: host cell toxicity; cell line: HEL; endpoint: CC50

CCn: concentration that lowers growth or viability of the cells by n%.

{"compound": "Cc1cc(=O)oc2cc(O)c(O)cc12", "result": "161 µg/mL"}
{"compound": "CCCc1cn([C@H]2C[C@H](O)[C@@H](CO)S2)c(=O)[nH]c1=O", "result": ">200 µM"}
{"compound": "CNC[C@H](O)c1ccc(O)c(O)c1", "result": "79 µg/mL"}
{"compound": "CCc1cn([C@H]2C[C@H](O)[C@@H](CO)O2)c(=O)[nH]c1=O", "result": "8.2 µM"}
{"compound": "Nc1ncnc2c1ncn2[C@@H]1C[C@H](O)[C@@H](O)[C@H]1O", "result": ">50 µg/mL"}
{"compound": "O=c1[nH]c(=O)n([C@H]2C[C@H](O)[C@@H](CO)O2)cc1I", "result": "76 µM"}
{"compound": "O=c1[nH]c(=O)n([C@H]2C[C@H](O)[C@@H](CO)O2)cc1C1CCC1", "result": ">150 µM"}
{"compound": "CCc1cn([C@@H]2O[C@H](CO)[C@@H](O)[C@@H]2O)c(=O)[nH]c1=O", "result": ">588 µM"}
{"compound": "CCc1cn([C@H]2C[C@H](O)[C@@H](CO)S2)c(=O)[nH]c1=O", "result": "≥200 µM"}
{"compound": "CCCOC(=O)c1cc(O)c(O)c(O)c1", "result": "74 µg/mL"}
{"compound": "CC(C)COC(=O)C(O)Cn1cnc2c(N)ncnc21", "result": "120 µg/mL"}
{"compound": "CCc1cn([C@H]2C[C@H](O)[C@@H](CO)O2)c(=O)[nH]c1=O", "result": "≥200 µM"}
{"compound": "Nc1ncnc2c1ncn2[C@@H]1CC[C@@H](O)[C@H]1O", "result": "20 µg/mL"}
{"compound": "O=c1[nH]c(=O)n([C@@H]2O[C@H](CO)[C@@H](O)[C@H]2O)cc1/C=C/Br", "result": "292 µM"}
{"compound": "Nc1ncnc2c1ncn2[C@@H]1C=C(CO)[C@@H](O)[C@H]1O", "result": "43 µg/mL"}
{"compound": "O=C(O)/C=C/c1ccc(O)c(O)c1", "result": "46 µg/mL"}
{"compound": "Nc1ncnc2c1ncn2[C@@H]1C=C[C@@H](O)[C@H]1O", "result": "86 µg/mL"}
{"compound": "O=c1[nH]c(=O)n([C@@H]2O[C@H](CO)[C@@H](O)[C@@H]2O)cc1I", "result": ">423 µM"}
{"compound": "COc1cccc(O)c1O", "result": "93 µg/mL"}

A second listing of 2 rows from above:

compound | result
CCc1cn([C@@H]2O[C@H](CO)[C@@H](O)[C@@H]2O)c(=O)[nH]c1=O | >588 µM
CCCOC(=O)c1cc(O)c(O)c(O)c1 | 74 µg/mL

Lines come from different laboratories, so protocols vary.